Measurements taken from US20100204237A1, “Hydroxypyrimidinone derivatives having inhibitory activity against HIV integrase” (priority 2003, published 2010).

Assays:
HIV (HTLV-IIIB strain) = experiment: inhibitory activities against HIV cell proliferation, MT-4 cells, MTT (Experimental Example 2); type: cell-based; settings: concentration at which 50% of cytopathy caused by viruses was inhibited, 4 days
Method: The inhibitory activities against HIV cell proliferation were determined by the assay method described below. • (1) HIV (HTLV-IIIB strain) persistence infection human T-cell strain Molt-4 clone 8 was cultured on RPMI-1640 medium supplemented with 10% fetal bovine serum, and the supernatant was measured for viral titer after filtration, and stored at −80° C. On the other hand, each anti-HIV active agent was diluted in the above culture medium to a predetermined concentration, and each well of a 96-well microplate was added with 50 μl of the resultant active agent solution. Then, 100 μl (3.5×10^4 cells) each of MT-4 cell suspension was poured into each well, followed by each 50 μl (60 pfu (plaque forming unit)) of the HIV-containing supernatant diluted with the above culture medium. • (2) After incubating for 4 days in a carbon dioxide incubator at 37° C., every well was added with 30 μl of 3-(4,5-dimethylthiazole-2-yl)-2,5-diphenyltetrazolium bromide (MTT) 5 mg/ml), PBS, and incubated for another 1 hour. At this time, since living cells reduce MTT to cause precipitation of formazane, 150 μl of cell supernatant was removed from each well, and instead 150 μl of lysis solution (isopropanol supplemented with 10% Triton X-100 and 0.4% (v/v) HCl) was added, to make formazane eluate by shaking with a plate mixer. […] The concentration of Compound at which 50% of cytopathy caused by viruses was inhibited was defined as EC50.

HIV integrase = HIV integrase (Human immunodeficiency virus type 1 group M subtype B, UniProt P04585); experiment: inhibitory activities against integrase (Experimental Example 1); type: biochemical; settings: integrase inhibition, OD405 nm plate assay
Method: The inhibitory activities against integrase were determined by the assay described below.
A substrate DNA, solution (2 pmol/μl) and a target DNA solution (5 pmol/μl) were prepared in the manner as described in Experimental example 1 of WO 2004/024693. Before using the DNA solutions, complementary chains were annealed by slowly cooling after boiling. Substrate DNA and target DNA had sequences as described in that Experimental example.
Streptavidin, obtained from Vector Laboratories, was dissolved in 0.1 M carbonate buffer (composition: 90 mM Na2CO3, 10 mM NaHCO3) at concentration of 40 μg/ml. After coating each well of immunoplates (obtained from NUNC) with 50 μl of the above solution at 4° C. over night, each well was washed twice with PBS (composition: 13.7 mM NaCl, 0.27 mM KCl, 0.43 mM Na2HPO4, 0.14 mM KH2PO4) and blocked with 300 μl of 1% skim milk in PBS for 30 min. Additionally, each well was washed twice with PBS and added 50 μl of substrate DNA solution (2 pmol/μl). The immunoplates were kept at room temperature for 30 min while shaking. Then, each well was washed twice with PBS and once with H2O.
Subsequently, in the each well prepared above were added 51 μl of the reaction solution prepared from 12 μl of the buffer (composition: 150 mM MOPS (pH 7.2), 75 mM MnCl2, 50 mM 2-mercaptoethanol, 25% glycerol, 500 μg/ml bovine serum albumin-fraction V), and 39 μl of the distilled water. Then 9 μl of an integrase solution (30 pmol) was added and mixed well. In the well of negative control (NC) was added 9 μl of the integrase dilution buffer (composition: 20 mM MOPS (pH7.2), 400 mM potassium glutamate, 1 mM EDTA, 0.1% NP-40, 20% glycerol, 1 mM DTT, 4M urea), and mixed well using a plate mixer.
The plates were incubated at 30° C. for 60 minutes. The reaction solution was removed and washed three times with 250 μl of washing buffer (composition: 150 mM MOPS (pH7.2), 50 mM 2-mercaptoethanol, 25% glycerol, 500 μg/ml bovine serum albumin-fraction V).
Then each well was added with 53 μl of reaction solution prepared from 12 μl of buffer (composition: 150 mM MOPS (pH7.2), 75 mM MgCl2, 50 mM 2-mercaptoethanol, 25% glycerol, 500 μg/ml bovine serum albumin-fraction V) and 41 μl of distilled water. Further, each well was added with 6 μl of DMSO solution of a compound to be tested, and the well of positive control (PC) was added with 6 μl of DMSO, and mixed well by a plate mixer. After incubating the plate for 30 minutes at 30° C., was added 1 μl of target DNA (5 pmol/μl), and mixed well by a plate mixer.
After incubation for 10 minutes at 30° C., each plate was washed twice with PBS after removal of the reaction solution. Then, 100 μl of ×2000 diluted solution of anti-digoxigenin antibody labeled with alkaline phosphatase (sheep Fab fragment: Boehringer) was added, allowed to bind for 1 hour at 30° C., and washed twice with PBS containing 0.05% Tween20 and once with PBS in this sequence. Next, 150 μl of the Alkaline phosphatase coloring buffer (composition: 10 mM p-Nitrophenylphosphate (obtained from Vector Laboratories), 5 mM MgCl2, 100 mM NaCl, 100 mM Tris-HCl (pH 9.5)) was added and allowed to react for 2 hours at 30° C. Then the reaction was terminated by the addition of 50 μl of 1N NaOH solution. The optical density at 405 nm (OD405 nm) of each well was measured and the inhibition rate (IC50) was determined by the following expression.
The inhibition rate (%)=100[1−{(C abs.−NC abs.)/(PC abs.−NC abs.)}]
C abs.; the OD of the well of the compound
NC abs.: the OD of the negative control (NC)
PC abs.: the OD of the positive control (PC)

Row | Compound | Experimental example 2 (EC50, ng/ml) (HIV (HTLV-IIIB strain)) [ng/mL] | Experimental example 1 (IC50, ng/ml) (HIV integrase) [ng/mL] | Experimental example 2 (EC50, ng/ml) (HIV (HTLV-IIIB strain); tested form: Li salt) [ng/mL] | Experimental example 1 (IC50, ng/ml) (HIV integrase; tested form: Li salt) [ng/mL]
1 | Cn1c(Cc2ccc(Br)cc2)nc(-c2ncc(Cc3ccc(F)cc3)o2)c(O)c1=O | 185 | 17 | – | –
2 | CCN1Cn2c(nc(C(=O)NCc3ccc(F)cc3)c(O)c2=O)C1(C)C | 10 | 4.1 | – | –
3 | CN(C)C(=O)C(=O)NC(C)(C)c1nc(-c2ncc(Cc3ccc(F)cc3)s2)c(O)c(=O)n1C | 7.6 | 5 | – | –
4 | CN1Cn2c(nc(C(=O)NCc3ccc(F)cc3)c(O)c2=O)C1(C)C | 7.6 | 4.5 | – | –
5 | CN1C(=O)Cn2c(nc(-c3ncc(Cc4ccc(F)cc4)s3)c(O)c2=O)C1(C)C | 8.7 | 2 | – | –
6 | CC(=O)NC(C)(C)c1nc(-c2ncc(Cc3ccc(F)cc3)o2)c(O)c(=O)n1C | 8.8 | 24 | – | –
7 | COCC(=O)Nc1ccc(-c2nc(-c3ncc(Cc4ccc(F)cc4)s3)c(O)c(=O)[nH]2)cc1 | 27 | 7.2 | – | –
8 | O=C1CCCN1c1ccc(-c2nc(-c3ncc(Cc4ccc(F)cc4)s3)c(O)c(=O)[nH]2)cc1 | 30 | 13 | – | –
9 | CC(=O)NC(C)(C)c1nc(-c2ncc(Cc3ccc(F)cc3)s2)c(O)c(=O)[nH]1 | 4 | 4 | – | –
10 | COCC(=O)NC(C)(C)c1nc(-c2ncc(Cc3ccc(F)cc3)s2)c(O)c(=O)[nH]1 | 8.2 | 4.1 | – | –
11 | Cn1c([C@@H]2CCCN2S(C)(=O)=O)nc(-c2ncc(Cc3ccc(F)cc3)o2)c(O)c1=O | 5 | 11 | – | –
12 | CC(=O)N1CCC[C@H]1c1nc(-c2ncc(Cc3ccc(F)cc3)o2)c(O)c(=O)n1C | – | – | 1.5 | 16
13 | CC(C)(NC(=O)c1ccccn1)c1nc(-c2ncc(Cc3ccc(F)cc3)s2)c(O)c(=O)[nH]1 | 12 | 4.5 | – | –
14 | Cn1c(C(C)(C)NS(C)(=O)=O)nc(-c2ncc(Cc3ccc(F)cc3)s2)c(O)c1=O | 6 | 5.1 | – | –
15 | CC1(C)c2nc(C(=O)NCc3ccc(F)cc3)c(O)c(=O)n2CN1Cc1ccccc1 | 7.1 | 1.8 | – | –
